Positions count from the first letter of the chain named.
B1: FI6 variant 4 (antibody, V domains shown)
VH: QVQLVQSGGGVVQPGRSLRLSCVASGFTFSTYAMHWVRQAPGRGLEWVAVISYDANYKYYADSVKGRFSISRDNSQNTLHLEMNTLRTEDTALYYCAKDSQLRSLLYFEWLSQGYFEPWGQGTLVTVTS
VL: DIVMTQSPDSLAVSLGERATINCKSSQSVTFNYKNYLAWYQQKPGQPPKLLIYWASTRESGVPDRFSGSGSGTDFTLTISSLQAEDVAVYYCQQHYRTPPTFGQGTKVEIK
B2: FI6 variant 5 (antibody, V domains shown)
VH: B1 VH
VL: B1 VL with Y33N
B3: FI6 variant 3 (antibody, V domains shown)
VH: QVQLVESGGGVVQPGRSLRLSCAASGFTFSTYAMHWVRQAPGKGLEWVAVISYDANYKYYADSVKGRFTISRDNSKNTLYLQMNSLRAEDTAVYYCAKDSQLRSLLYFEWLSQGYFDYWGQGTLVTVSS
VL: B1 VL

What was measured:
HA of H5 A/VN/1194/04 = HA of H5 A/VN/1194/04 (influenza A virus H5 A/VN/1194/04); assay: cell-based or functional assay
[1] = target: HA of H7N1 A/ck/FPV/Rostock/34 (influenza A virus H7N1 …, UniProt P03459 19-563); assay: cell-based or functional assay
H7-HA (Table 7) = H7-HA (Table 7) (influenza A virus, H7 subtype, strain …); assay: ELISA on baculovirus-derived recombinant HA
H5-HA (Table 7) = H5-HA (Table 7) (influenza A virus, H5 subtype, strain …); assay: ELISA on baculovirus-derived recombinant HA
[2] = target: HA of H8N4 A/Alberta/357/84 (influenza A virus H8N4 A/Alberta/357/84); assay: ELISA on recombinant or purified HA
[3] = target: HA of H5N1 A/Viet Nam/1203/04 (influenza A virus H5N1 A/Viet …); assay: ELISA on recombinant or purified HA
[4] = target: HA of H5N1 A/Viet Nam/1/05 (influenza A virus H5N1 A/Viet Nam/1/05); assay: ELISA on recombinant or purified HA
[5] = target: HA of H6N5 A/shearwater/Australia/1/72 (influenza A virus H6N5 …); assay: ELISA on recombinant or purified HA
HA of H9 A/HK/1073/99 = HA of H9 A/HK/1073/99 (influenza A virus H9N2 A/Hong …); assay: ELISA on recombinant or purified HA
[6] = target: HA of H10N4 A/mink/Sweded/3900/84 (influenza A virus H10N4 …); assay: ELISA on recombinant or purified HA
[7] = target: HA of H7N3 A/Canada/444/04 (influenza A virus H7N3 A/Canada/444/04); assay: ELISA on recombinant or purified HA

Binder	Neutralization H5 A/VN/1194/04 IC50 (µg/ml), pseudovirus (HA of H5 A/VN/1194/04)	Neutralization H7 A/ck/FPV Rostock/34 IC50 (µg/ml), pseudovirus [1]	EC50 (H7-HA (Table 7))	EC50 (H5-HA (Table 7))	EC50 [2]	EC50 [3]	EC50 [4]	EC50 [5]	EC50 (HA of H9 A/HK/1073/99)	EC50 [6]	EC50 [7]
B1	0.0035 µg/mL	0.0093 µg/mL									
B2	0.0054 µg/mL	0.022 µg/mL									
B3			0.0573 mg/L	0.0235 mg/L	0.027 mg/L	0.014 mg/L	0.011 mg/L	0.034 mg/L	0.015 mg/L	0.085 mg/L	0.025 mg/L

From patent publication US20170204167A1 (INSTITUTE FOR RESEARCH IN BIOMEDICINE, published 2017)
